Experimental data taken from US7745192.

Biological target: human prothrombin, P00734

B1: Brown snake venom protease (snake venom protease of Pseudonaja textilis, purified from the Brown sna (protein)
chain 1: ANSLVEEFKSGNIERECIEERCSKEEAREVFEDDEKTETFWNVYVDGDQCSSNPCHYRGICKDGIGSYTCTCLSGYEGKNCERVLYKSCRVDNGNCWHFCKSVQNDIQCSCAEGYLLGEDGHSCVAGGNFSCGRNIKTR
chain 2: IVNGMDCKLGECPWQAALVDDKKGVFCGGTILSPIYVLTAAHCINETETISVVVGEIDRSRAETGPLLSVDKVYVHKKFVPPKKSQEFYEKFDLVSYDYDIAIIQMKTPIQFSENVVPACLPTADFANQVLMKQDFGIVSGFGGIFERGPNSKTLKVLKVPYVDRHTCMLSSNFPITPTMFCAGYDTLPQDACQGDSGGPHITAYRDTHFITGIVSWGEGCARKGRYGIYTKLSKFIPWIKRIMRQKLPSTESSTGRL
  Brown SVP (µg) giving a citrated plasma clotting time of 50 sec, alone: 11 µg
  Brown SVP (µg) giving a citrated plasma clotting time of 50 sec, with Ca^2+: 0.05 µg
  Brown SVP (µg) giving a citrated plasma clotting time of 70 sec, alone: 4 µg
  Brown SVP (µg) giving a citrated plasma clotting time of 70 sec, with Ca^2+: 0.02 µg
  Clotting time (sec) +Ca^2+, citrated plasma, Brown SVP 0.650 µg/mL: 34.7 s
  Clotting time (sec) +Ca^2+, citrated plasma, Brown SVP 1.300 µg/mL: 34.5 s
  Clotting time (sec) +Ca^2+, citrated plasma, Brown SVP 2.600 µg/mL: 27.6 s
  Clotting time (sec) +Ca^2+, citrated plasma, Brown SVP 6.500 µg/mL: 24 s
  Clotting time (sec) +Ca^2+, citrated plasma, Brown SVP 13.000 µg/mL: 23.4 s
  Clotting time (sec) +Ca^2+, citrated plasma, Brown SVP 26.000 µg/mL: 18.7 s
  Clotting time (sec) +Ca^2+, citrated plasma, Brown SVP 39.000 µg/mL: 14.9 s
  Clotting time (sec) -Ca^2+, citrated plasma, Brown SVP 0.650 µg/mL: > 100 s
  Clotting time (sec) -Ca^2+, citrated plasma, Brown SVP 1.300 µg/mL: > 100 s
  Clotting time (sec) -Ca^2+, citrated plasma, Brown SVP 2.600 µg/mL: > 100 s
  Clotting time (sec) -Ca^2+, citrated plasma, Brown SVP 6.500 µg/mL: 51.6 s
  Clotting time (sec) -Ca^2+, citrated plasma, Brown SVP 13.000 µg/mL: 38.4 s
  Clotting time (sec) -Ca^2+, citrated plasma, Brown SVP 26.000 µg/mL: 35.1 s
  Clotting time (sec) -Ca^2+, citrated plasma, Brown SVP 39.000 µg/mL: 27.3 s
  SDS PAGE time course of prothrombin cleavage: The prothrombin is substantially gone by the 48 hour time point
  activity against S-2238 (thrombin formed from prothrombin by the protease): initial activity against S-2238 was very low and increased approximately 20 fold
  approximate clotting time of human citrated plasma, Brown SVP alone: 120 s
  approximate clotting time of human citrated plasma, Brown SVP with 40 mM CaCl2: 60 s
